A mixed list of measured activities; the numbers were collected in NIAID ChemDB.

All rows: tests in culture

MIC50, MIC90 and the like: level of inhibition, or share of isolates inhibited.

smiles,species,strain or isolate,changes,cell line,method,conditions,measure,dose,value
CCCCO/N=C1\[C@H](C)CC(C)(O)[C@H](O[C@@H]2O[C@H](C)C[C@H](N(C)C)[C@H]2O)[C@@H](C)[C@H](OC2C[C@@](C)(OC)[C@@H](O)[C@H](C)O2)[C@@H](C)C(=O)O[C@H](CC)[C@@](C)(O)[C@H](O)[C@H]1C,Mycobacterium avium complex,20039 (clarithromycin-susceptible),-,-,-,-,MIC,-,0.78 µg/mL
CCSC1NN=C(Cc2nc(C)n(C)n2)N1c1ccccc1,Respiratory syncytial virus,-,-,-,-,-,MIC,-,400 µg/mL
C=C/C(C)=C/[C@@]1(C)SC(=O)C(C)=C1O,Escherichia coli,SJ83 (GSHA),-,-,-,-,MIC,-,25 µM
Cc1ccc2oc(=S)n(-c3ccc(Cl)c(Cl)c3)c(=S)c2c1,Mycobacterium kansasii,My 235/80,-,-,-,14 d,MIC,-,8 µM
NC(=S)Nc1cccc(OCCCCCCOc2cccc3ccccc23)c1,Hepatitis C virus,-,-,Ava5-EG(delta4AB)SEAP,reporter gene / fluorescence,-,EC50,-,0.001–1 µM
Cn1cc(C(=O)NCc2ccc(Cl)cc2)c(=O)c2cc(CN3CCOCC3)ccc21,Herpes simplex virus 2,L6191429 ACV resistant,-,HFF,plaque count,-,EC50,-,2.3 µM
NNC(=O)Cc1nc2n(n1)CCCCC2,Sindbis virus,-,-,-,-,-,MIC,-,>16 µg/mL
CC(C)Nc1nc2cc(Cl)c(Cl)cc2n1[C@H]1O[C@@H](CO)[C@H](O)[C@@H]1O,Mouse cytomegalovirus,Smith (resistant),-,HFF,plaque count,-,EC50,-,30 µM
Fc1ccc2oc(=S)n(-c3ccc(Cl)cc3)c(=S)c2c1,Mycobacterium kansasii,My 235/80,-,-,-,21 d,MIC,-,4 µM
CCC(=O)O[C@H]1[C@H](C)OC(O[C@H]2[C@H](C)[C@@H](O[C@@H]3O[C@H](C)C[C@H](N(C)C)[C@H]3O)C(C)(O)C[C@@H](C)/C(=N\OCCCOc3ccccc3)[C@H](C)[C@@H](O)[C@](C)(O)[C@@H](CC)OC(=O)[C@@H]2C)C[C@@]1(C)OC,Mycobacterium avium complex,20096 (clarithromycin-resistant),-,-,-,-,MIC,-,0.78 µg/mL
CNc1cccc2c(S(=O)(=O)Nc3ccc(NC(=O)C(C)(C)CO)cc3)cccc12,Mouse cytomegalovirus,BAY 38-4766-resistant,-,-,plaque count,-,EC50,-,31 µM
COc1cc(OC)c2c(=O)cc(-c3ccccc3)oc2c1CC=C(C)C,Dengue virus,Type 2/Mexican isolate,-,LLC-MK2,plaque count,-,inhibition,12 µM,75%
CC(C)(C)c1ccc(CSc2ncnc3c2ncn3[C@@H]2O[C@H](CO)[C@@H](O)[C@H]2O)cc1,Toxoplasma gondii,RH adenosine kinase-deficient,-,-,-,-,inhibition,5 µM,0%
C[C@H](NC(=O)c1c2n(c(=O)n1C1CC1)CCN(C(=O)c1ccc(Br)c(Cl)c1)C2)c1ccccc1,Hepatitis B virus,-,-,HepG2.117,PCR,-,EC50,-,0.5–5 µM
CCCCCCCCCCCCCCCCCCOCCCOP1(=O)CO[C@@H](Cn2ccc(N)nc2=O)CO1,Rat cytomegalovirus,-,-,MRC-5,plaque count,-,EC50,-,0.005 µM
CCCCCCCCCCO/N=C1\[C@H](C)CC(C)(O)[C@H](O[C@@H]2O[C@H](C)C[C@H](N(C)C)[C@H]2O)[C@@H](C)[C@H](OC2C[C@@](C)(OC)[C@@H](O)[C@H](C)O2)[C@@H](C)C(=O)O[C@H](CC)[C@@](C)(O)[C@H](O)[C@H]1C,Mycobacterium avium complex,20092 (clarithromycin-resistant),-,-,-,-,MIC,-,25 µg/mL
CC(C)CS[C@@H]1C=C[C@H](n2cnc3c(N)ncnc32)C1,Punta Toro virus,-,-,HeLa,cytopathic effect,-,EC50,-,>3.2 µg/mL
Nc1ccn(C[C@@H](CO)OCP(=O)(O)O)c(=O)n1,Rat cytomegalovirus,-,-,MRC-5,plaque count,-,EC50,-,0.3 µM
O=C(O)P(=O)(O)O,Mouse cytomegalovirus,Smith (resistant),-,HFF,plaque count,-,EC50,-,230 µM
COc1ccc2oc(=S)n(-c3ccc(C)cc3)c(=S)c2c1,Mycobacterium kansasii,My 235/80,-,-,-,14 d,MIC,-,16 µM
N#Cc1ccc(CSc2ncnc3c2ncn3[C@@H]2O[C@H](CO)[C@@H](O)[C@H]2O)cc1,Toxoplasma gondii,RH (WILD TYPE),-,-,-,-,inhibition,25 µM,92.44%
CC(=O)ONc1ccc(S(=O)(=O)N(CC(C)C)C[C@@H](O)[C@H](Cc2ccccc2)NC(=O)COc2ccc3ccccc3c2)cc1,SIV,-,-,CEM,MTT,-,EC50,-,7.3 µM
Nc1nc2c(ncn2COC2COP(=O)(O)OC2)c(=O)[nH]1,Guinea pig herpesvirus,Lymphotropic,-,GPE,virus yield,-,EC90,-,0.9 µg/mL
O=C(O)CCC(=O)Nc1ccc(C(=O)NC(=O)c2ccccc2O)cc1,Toxoplasma gondii,-,-,Human foreskin fibroblasts,-,-,MIC50,-,>1 µM
Cc1ccc(-c2ccccc2OCCCCCOc2cccc(NC(N)=S)c2)cc1,Hepatitis C virus,-,-,Ava5-EG(delta4AB)SEAP,reporter gene / fluorescence,-,EC50,-,0.001–1 µM
CC(=O)ONc1ccc(S(=O)(=O)N(CC(C)C)C[C@@H](O)[C@H](Cc2ccccc2)NC(=O)CCn2c(=O)oc3ccccc32)cc1,SIV,-,-,CEM,MTT,-,EC50,-,0.8 µM
CCn1nc(CC(=O)NN=C(C)C)nc1C,Sindbis virus,-,-,-,-,-,MIC,-,>80 µg/mL
O=c1oc2ccc(Cl)cc2c(=S)n1-c1ccc(F)cc1,Mycobacterium kansasii,6509/96,-,-,-,21 d,MIC,-,16 µM
C[C@H](NC(=O)c1c2n(c(=O)n1-c1ccc(OC3CC3)cc1)CCN(C(=O)c1ccc(Br)c(Cl)c1)C2)c1ccc(OCC(N)=O)cc1F,Hepatitis B virus,-,-,HepG2.117,PCR,-,EC50,-,<0.1 µM
NC(=S)Nc1cccc(OCCCCCOc2nccc3ccccc23)c1,Hepatitis C virus,-,-,Ava5-EG(delta4AB)SEAP,reporter gene / fluorescence,-,EC50,-,0.001–1 µM
CCc1ccc(C(=O)NS(=O)(=O)c2ccccc2OC)cc1,Toxoplasma gondii,-,-,Human foreskin fibroblasts,-,-,MIC90,-,>0.25 µM
Cn1cc(C(=O)NCc2ccc(Cl)cc2)c(=O)c2cc(CN3CCOCC3)ccc21,Varicella zoster virus,KL varicella isolate,-,HFF,plaque count,-,inhibition,1.6 µM,90%
O=C(NCc1ccc(Cl)cc1)c1cn2c3c(cc(CN4CCOCC4)cc3c1=O)OC(c1cccnc1)C2,Herpes simplex virus 2,G (WILD TYPE),-,HFF,plaque count,-,EC50,-,>16.4 µM
OC[C@@H]1CC[C@H](n2cnc3c(NC4CCCCCC4)nc(Cl)nc32)O1,Maedi-visna virus,-,-,-,cytopathic effect,-,EC50,-,0.027 µM
CCN=C1NC2C(OC(CO)C(O)C2O)S1,Kaposi sarcoma virus,-,-,HEK 293,flow cytometry,-,inhibition,0.1 µM,24%
C=CCc1ccc(O)c(OC)c1,Candida albicans,2508,-,-,turbidity,-,MIC90,-,475 µg/mL
N#Cc1cc([N+](=O)[O-])ccc1Oc1ccc(Cl)c(Cl)c1,Coxsackie virus,TYPE B4,-,VERO,plaque count,-,inhibition,0.25 µg/mL,31.8%
Cc1ccc(-c2ccc(OCCCCCOc3cccc(NC(N)=S)c3)cc2)cc1,Hepatitis C virus,-,-,Ava5-EG(delta4AB)SEAP,reporter gene / fluorescence,-,EC50,-,0.001–1 µM
Nc1ccn([C@@H]2CS[C@H](CO)O2)c(=O)n1,Maedi-visna virus,-,-,-,cytopathic effect,-,EC50,-,5 µM
CN(C)c1cccc2c(S(=O)(=O)Nc3ccc(NC(=O)C(C)(C)CO)cc3)cccc12,Mouse cytomegalovirus,Smith (resistant),-,HFF,plaque count,-,EC50,-,28.3 µM
CO[C@H]1/C=C/O[C@@]2(C)Oc3c(C)c(O)c4c(O)c(c5c(c4c3C2=O)NC2(CCN(CC(C)C)CC2)N=5)=NC(=O)/C(C)=C\C=C\[C@H](C)[C@H](O)[C@@H](C)[C@@H](O)[C@@H](C)[C@H](OC(C)=O)[C@@H]1C,Mycobacterium avium intracellulare,953,-,-,-,-,MIC,-,0.5 µg/mL
CC[C@H]1OC(=O)[C@H](C)[C@@H](OC2C[C@@](C)(OC)[C@@H](O)[C@H](C)O2)[C@H](C)[C@@H](O[C@@H]2O[C@H](C)C[C@H](N(C)C)[C@H]2O)C(C)(O)C[C@@H](C)/C(=N\OCCCOc2ccccc2)[C@H](C)[C@@H](O)[C@]1(C)O,Mycobacterium avium complex,20092 (clarithromycin-resistant),-,-,-,-,MIC,-,3.13 µg/mL
COC(=O)N[C@H](C(=O)N1CCCC1c1ncc(-c2ccc(-c3ccc(-c4cnc([C@@H]5CC(C)CN5C(=O)[C@@H](NC(=O)CO)C(C)C)[nH]4)cc3)cc2)[nH]1)C(C)C,Hepatitis C virus,1b,L31V,ET,luciferase,-,EC50,-,0.00002 µM
CCn1nc(-c2ccc(Cn3ccc4ccccc43)cc2)nc1C,Sindbis virus,-,-,-,-,-,MIC,-,>80 µg/mL
CCCCCCCCCCC(=O)O[C@H]1[C@H](C)OC(O[C@H]2[C@H](C)[C@@H](O[C@@H]3O[C@H](C)C[C@H](N(C)C)[C@H]3O)C(C)(O)C[C@@H](C)/C(=N\OCCCOc3ccccc3)[C@H](C)[C@@H](O)[C@](C)(O)[C@@H](CC)OC(=O)[C@@H]2C)C[C@@]1(C)OC,Mycobacterium avium complex,20096 (clarithromycin-resistant),-,-,-,-,MIC,-,>50 µg/mL
COc1ccc(-n2c(-c3cc(Cc4ccccc4)ccn3)c3n(c2=O)CCN(C(=O)c2ccc(Br)c(Cl)c2)C3)cc1,Hepatitis B virus,-,-,HepG2.117,PCR,-,EC50,-,0.5–5 µM
Cc1nc(CC(=O)NN)nn1C,Reovirus,TYPE 1,-,-,-,-,MIC,-,>80 µg/mL
CCc1ccc(C(=O)NC(=O)c2cc(Cl)ccc2O)cc1,Toxoplasma gondii,-,-,Human foreskin fibroblasts,-,-,MIC50,-,>0.25 µM
CC(C)CN(C[C@@H](O)[C@H](Cc1ccccc1)NC(=O)Cc1c[nH]c2ccccc12)S(=O)(=O)c1ccc(Br)cc1,SIV,-,-,CEM,MTT,-,EC50,-,6.3 µM
Nc1nc2c(ncn2COC(CO)CO)c(=O)[nH]1,Human cytomegalovirus,VR5406 (ganciclovir-resistant),-,-,plaque count,-,EC90,-,75 µM
CC[C@H]1OC(=O)[C@H](C)[C@@H](O[C@H]2C[C@@](C)(OC)[C@@H](OC(C)=O)[C@H](C)O2)[C@H](C)[C@@H](O[C@@H]2O[C@H](C)C[C@H](N(C)C)[C@H]2OC(=O)NNCCOc2ccccc2)C(C)(O)C[C@@H](C)/C(=N\OCCCC2CCCCC2)[C@H](C)[C@@H](O)[C@]1(C)O,Mycobacterium avium complex,20096 (clarithromycin-resistant),-,-,-,-,MIC,-,1.56 µg/mL
OC[C@H]1O[C@@H](n2cnc3c(NC4CC4)nc(Cl)nc32)C[C@@H]1O,Maedi-visna virus,-,-,-,cytopathic effect,-,EC50,-,0.15 µM
CN(C)c1cccc2c(S(=O)(=O)Nc3ccc(NC(=O)C(C)(C)CO)cc3)cccc12,Rhesus cytomegalovirus,68-1,-,-,plaque count,-,EC50,-,0.67 µM
CCn1nc(CC(=O)N/N=C/c2ccco2)nc1C,Sindbis virus,-,-,-,-,-,MIC,-,>80 µg/mL
CC[C@H]1OC(=O)[C@H](C)[C@@H](O[C@H]2C[C@@](C)(OC)[C@@H](OC(C)=O)[C@H](C)O2)[C@H](C)[C@@H](O[C@@H]2O[C@H](C)C[C@H](N(C)C)[C@H]2O)C(C)(O)C[C@@H](C)/C(=N\OCCCOc2ccccc2)[C@H](C)[C@@H](O)[C@]1(C)O,Mycobacterium avium complex,20096 (clarithromycin-resistant),-,-,-,-,MIC,-,0.78 µg/mL
COC(=O)[C@H]1[C@@H]2C[C@@H](O[C@@H]3O[C@H](C)[C@@H](O)[C@H](N)[C@@H]3O)/C=C/C=C/C=C/C=C/C=C/C=C/C=C/[C@H](C)[C@@H](O)[C@H](C)[C@H](C)OC(=O)C[C@H](O)C[C@H](O)[C@@H](O)CC[C@H](O)C[C@H](O)C[C@](O)(C[C@@H]1O)O2,Adenovirus,TYPE 4,-,HFF,plaque count,-,inhibition,3.2 µg/mL,18%
COc1ccc(-n2c(C(=O)NCc3ccc4c(c3)OCCO4)c3n(c2=O)CCN(C(=O)c2ccc(Cl)c(Cl)c2)C3)cc1,Hepatitis B virus,-,-,HepG2.117,PCR,-,EC50,-,0.5–5 µM
CC(=O)ONc1ccc(S(=O)(=O)N(CC(C)C)C[C@@H](O)[C@H](Cc2ccccc2)NC(=O)CCCc2c[nH]c3ccccc23)cc1,SIV,-,-,CEM,MTT,-,EC50,-,6.8 µM
CCCCCCCCCCCCCCCCCCOCCOP(=O)(O)CO[C@H](CO)Cn1ccc(N)nc1=O,Guinea pig cytomegalovirus,-,-,MRC-5,plaque count,-,EC50,-,0.0009 µM
CC1(C)N=C(N)N=C(N)N1OCCCOc1cc(Cl)c(Cl)cc1Cl,Mycobacterium avium complex,3008,-,-,-,-,MIC,-,1 µg/mL
O=C(NNC(=O)c1ccccc1O)c1ccc2ccccc2c1,Toxoplasma gondii,-,-,Human foreskin fibroblasts,-,-,MIC50,-,>0.25 µM
CC[C@H]1OC(=O)[C@H](C)[C@@H](OC(=O)CCc2ccccc2)[C@H](C)[C@@H](O[C@@H]2O[C@H](C)C[C@H](N(C)C)[C@H]2O)C(C)(O)C[C@@H](C)/C(=N\OCCCOc2ccccc2)[C@H](C)[C@@H](O)[C@]1(C)O,Mycobacterium avium intracellulare,20066 (clarithromycin-susceptible),-,-,-,-,MIC,-,3.13 µg/mL

Lines come from different laboratories, so protocols vary. ECn is the concentration giving n% inhibition of infection, replication or growth. Inhibition is in % at the dose shown (toxicity tests: loss of growth or viability). a–b is a range or a potency band. An empty or dashed field is not shown.